The results in this text go back to US20240150396A1 (The Texas A&M University System, priority 2021, published 2024).

Test [1] relates to SARS-CoV-2 in Vero E6 cells. As to the kind of experiment: Anti-CoV-2 activity in Vero E6 cells. Format: cell-based. The settings on record: read-out: Anti-CoV-2 EC50 Vero E6 Cells.
The subject of test [2] is SARS-CoV-2 in A549/ACE2 cells. As to conditions: read-out: Anti-CoV-2 EC50 A549/ACE2 Cells.
Test [3] deals with SARS-CoV-2 3CL protease (Severe acute respiratory syndrome coronavirus 2 (2019-nCoV) (SARS-CoV-2), UniProt P0DTD1). The settings on record: read-out: Ki* 3CLpro; pH 7.5.

The structures appear in SMILES notation.

Consider `CC(=O)N[C@H](C(=O)N1CCC[C@H]1C(=O)N[C@H](C=O)Cc1ccc[nH]c1=O)C(C)C`, for which the EC50 in test [1] is greater than 20 µM.
With `CC(C)[C@H](NC(=O)OCc1ccccc1)C(=O)N[C@@H](CC1CCCCC1)C(=O)N[C@H](C=O)Cc1ccc[nH]c1=O`, the EC50 in test [2] stood at 5 µM. In addition, in test [3], the inhibition constant Ki stood at 9 nM.
With `CC(=O)N[C@H](C(=O)N[C@@H](CC1CCCCC1)C(=O)N[C@H](C=O)Cc1ccc[nH]c1=O)C(C)C`, the inhibition constant (Ki) in test [3] stood at 60 nM. Besides, the EC50 in test [1] was greater than 20 µM.
For the compound `CC(C)C[C@H](NC(=O)c1cc2ccccc2[nH]1)C(=O)N[C@H](C=O)Cc1ccc[nH]c1=O`, the EC50 in test [1] was greater than 20 µM.
Still for that read-out and setting: next, `O=C[C@H](Cc1ccc[nH]c1=O)NC(=O)[C@H](Cc1ccc([N+](=O)[O-])cc1)NC(=O)c1cc2ccccc2[nH]1`: greater than 20 µM.
